{"source": "paper PMC10312377", "about": "“A conserved epitope in VAR2CSA is targeted by a cross-reactive antibody originating from Plasmodium vivax Duffy binding protein” (Frontiers in Cellular and Infection Microbiology, 2023)", "test_system": "IgG in human sera from Colombian cohorts", "assay": "Indirect ELISA, seroreactivity of human sera (IgG) to peptides", "type": "binding", "conditions": "for Frequency of antibodies to SD1CLIPS: sera 1:200; for Frequency of seroreactivity to CRP1: sera 1/400"}
{"substance": "C(T2-013)NYKRKRRERDWDCNTKKDVCIPDRRYQLC(T2-013)K(Aoa) (sidechain bridge or staple) [SD1CLIPS, reference compound]", "values": [{"measurement": "Frequency of antibodies to SD1CLIPS", "setting": "VAR2CSA-seropositive non-pregnant population (34/67)", "value": 50.7, "unit": "%"}, {"measurement": "Frequency of antibodies to SD1CLIPS", "setting": "VAR2CSA-seropositive non-pregnant population (44/70)", "value": 62.8, "unit": "%"}, {"measurement": "Frequency of antibodies to SD1CLIPS", "setting": "VAR2CSA-seropositive pregnant women (30/56)", "value": 53.6, "unit": "%"}]}
{"substance": "KKYISEKKQEWDKQKTKYENKYVGKSASDLLKEN [CRP1]", "values": [{"measurement": "Frequency of seroreactivity to CRP1", "setting": "VAR2CSA-seropositive men and children, Tierralta (40/70)", "value": 57, "unit": "%"}, {"measurement": "Frequency of seroreactivity to CRP1", "setting": "VAR2CSA-seropositive non-pregnant cohort, Puerto Libertador (34/67), cut-off mean AU + 2 SD of 12 unexposed Colombians", "value": 50.7, "unit": "%"}, {"measurement": "Frequency of seroreactivity to CRP1", "setting": "VAR2CSA-seropositive pregnant women, Puerto Libertador (26/56)", "value": 46, "unit": "%"}, {"measurement": "Frequency of seroreactivity to CRP1", "setting": "negative control sera, Medellín, no exposure to malaria (one of 12, low reactivity)", "value": 8.3, "unit": "%"}]}
